Measurements reported in PubChem BioAssay AID504761 (Drosophila RNAi Screening Center, 2011).
The screen tested about 22,000 reagents; below is a random part of those with a known target gene and a result. In the full data, 116 (0.52%) are marked active. 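Calls depend on retest data that are not deposited; infection was ranked per plate without normalising between plates; the unit of the infection score is not given.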 Raw values are not corrected between plates. Unmarked entries are inactive. Names joined by + are all predicted targets of the reagent. Not stated in the record: the amount of reagent, the time to read-out.

- Purpose: 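Fly genes whose silencing reduces dengue virus type 2 infection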 (primary screen)
- Cell system: D.Mel-2 cells from Drosophila
- Reagent: long dsRNA against Drosophila genes
- Challenge: infection with dengue virus type 2; dose and infection time not stated
- Measured: 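Cells stained for dengue envelope protein and imaged; percent of infected cells per well on duplicate plates, ranked by infection, with stained nuclei counted for cell number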
- Scale: infection score: higher = more virus-infected cells; cell count: higher = more cells in the well
- Hit rule: 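Low infection ranks in the two replicates (chance level up to 0.065) followed by a retest with a 1.5-fold or larger significant decrease, p below 0.05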
- Calls: active = confirmed: knock-down lowers infection; inactive = not picked or not confirmed

| gene | DRSC id | infection score, replicate 1 | infection score, replicate 2 | cell count, replicate 1 | cell count, replicate 2 |
| --- | --- | --- | --- | --- | --- |
| CG13297 | DRSC09971 | 0.88 | 1.84 | 5574 | 6249 |
| CG11629 | DRSC03695 | 3.49 | 7.87 | 6881 | 6775 |
| conv | DRSC07213 | 9.52 | 24.6 | 6774 | 5559 |
| TwdlD | DRSC25038 | 4.48 | 7.35 | 6145 | 6071 |
| RpL22 | DRSC18707 | 2.81 | 3.32 | 1209 | 903 |
| RpL22 | DRSC22819 | 0.58 | 1.8 | 1556 | 1167 |
| CG14445 | DRSC17938 | 6.95 | 7.81 | 6047 | 5800 |
| CG14445 | DRSC24159 | 1.26 | 2.36 | 7004 | 6899 |
| CG5381 | DRSC02852 | 6.73 | – | 6316 | 390 |
| ncm | DRSC02179 | 5.47 | 14.2 | 3547 | 3361 |
| ncm | DRSC29504 | – | 0.57 | 265 | 350 |
| alphaTub84B | DRSC12622 | 9.16 | 8.78 | 404 | 410 |
| alphaTub84B | DRSC25011 | 5.3 | 4.47 | 528 | 582 |
| Baldspot | DRSC09671 | 1.6 | 3.33 | 6190 | 6194 |
| CG5781 | DRSC02893 | 4.69 | 11 | 5931 | 5301 |
| CG7049 | DRSC08587 | 12.8 | 31.7 | 5860 | 3751 |
| CG7049 | DRSC26356 | 8.66 | 2.55 | 5533 | 6522 |
| CG9839 | DRSC16574 | 9.25 | 8.03 | 6055 | 6603 |
| U2af50 | DRSC20297 | 5.44 | 7.19 | 4470 | 4198 |
| U2af50 | DRSC22867 | 4.59 | 6.62 | 5620 | 5771 |
| CG18628 | DRSC10328 | 1.58 | 1.74 | 5516 | 5862 |
| CG5397 | DRSC00683 | 4.68 | 2.44 | 6234 | 6157 |
| CG5397 | DRSC28535 | 15.4 | 14.5 | 6209 | 2538 |
| CG18179 | DRSC10303 | 1.58 | 2.19 | 6218 | 5941 |
| CG18179 | DRSC25528 | 1.96 | 2.18 | 6284 | 6063 |
| Gr28b | DRSC02291 | 2.89 | 4.47 | 6024 | 6312 |
| Gr28b | DRSC02292 | 5.08 | 6.93 | 5908 | 6323 |
| Gr28b | DRSC29459 | 22.3 | 1.95 | 5547 | 564 |
| Daao1 | DRSC06131 | 5.55 | 8.27 | 6744 | 5878 |
| SP1029 | DRSC16848 | 4.53 | 3.74 | 6740 | 6050 |
| SP1029 | DRSC25584 | 1.05 | 1.16 | 6504 | 6538 |
| fig | DRSC16270 | 1.68 | 15.1 | 3096 | 3210 |
| fig | DRSC24735 | 2.5 | 3.04 | 6439 | 5917 |
| scb | DRSC05542 | 0.64 | 3.74 | 6241 | 6077 |
| scb | DRSC07678 | 15.8 | 15.6 | 6130 | 6380 |
| CG15153 | DRSC02454 | 12 | 2.59 | 6108 | 6676 |
| CG15153 | DRSC26085 | 8.4 | 6.01 | 6311 | 6636 |
| spaw | DRSC06824 | 4.09 | 7.26 | 6622 | 6786 |
| rno | DRSC08584 | 3.54 | 26.5 | 6025 | 6013 |
| CG7368 | DRSC10826 | 5.18 | 5.39 | 5345 | 5922 |
| CG7368 | DRSC22821 | 0.85 | 1.04 | 6210 | 6845 |
| CG7368 | DRSC29098 | 22.2 | 1.78 | 5522 | 393 |
| Twdlbeta | DRSC07310 | 2.71 | 6.46 | 6863 | 6672 |
| Twdlbeta | DRSC25646 | 4.53 | 3.88 | 6583 | 6193 |
| beat-Va | DRSC14192 | 5.24 | 5.26 | 5724 | 6526 |
| GstT4 | DRSC19757 | 3.46 | 5.63 | 6790 | 6984 |
| ND-19 | DRSC04404 | 1.2 | 2.01 | 6328 | 6700 |
| ND-19 | DRSC27604 | 12.3 | 12.1 | 6437 | 6383 |
| Wdr62 | DRSC00081 | 4.44 | 2.42 | 6617 | 6244 |
| Wdr62 | DRSC21913 | 9.17 | 2.51 | 5842 | 5967 |
| CG11362 | DRSC04106 | 13.1 | 13.4 | 6196 | 5887 |
| CG11362 | DRSC22032 | 4.89 | 1.27 | 6160 | 6316 |
| CG11362 | DRSC27136 | 4.64 | 6.39 | 6791 | 6216 |
| Uch | DRSC00797 | 11.4 | 19.3 | 5894 | 5616 |
| PGAP3 | DRSC04989 | 11.5 | 32.5 | 5754 | 6002 |
| CG31473 | DRSC15443 | 7.51 | 8.86 | 5949 | 6217 |
| CG31473 | DRSC29111 | 12.3 | 9.23 | 4328 | 6113 |
| Mocs2A + Mocs2B | DRSC13697 | 16.9 | 2.9 | 2012 | 6440 |
| Mocs2A + Mocs2B | DRSC14219 | 5.46 | 2.93 | 6448 | 6870 |
| CG11384 | DRSC18628 | 3.52 | 1.01 | 6512 | 6701 |
| Pisd | DRSC15935 | 4.05 | 6.74 | 6371 | 6111 |
| Smug | DRSC15762 | 2.79 | 11.2 | 6813 | 6758 |
| Obp19a | DRSC20487 | 6.97 | 0.92 | 5513 | 5990 |
| CG13958 (retired record) | DRSC02300 | 16.9 | 3.63 | 5704 | 6341 |
| CG13958 (retired record) | DRSC28668 | 6.35 | 12.7 | 2017 | 1516 |
| Cyp4d14 | DRSC18457 | 2.36 | 4.78 | 6061 | 5253 |
| Cyp4d14 | DRSC24460 | 2.2 | 5.63 | 5538 | 6038 |
| tho2 | DRSC00646 | 2.87 | 15 | 5784 | 3014 |
| tho2 | DRSC28626 | 19.9 | 28.6 | 5595 | 5198 |
| syd | DRSC10963 | 5.71 | 9.94 | 6675 | 3140 |
| syd | DRSC24418 | 4.31 | 1.11 | 6330 | 6935 |
| CG14839 | DRSC14963 | 1.39 | 5.38 | 5985 | 6563 |
| CG14839 | DRSC27307 | 14 | 2.38 | 5772 | 6313 |
| Neurochondrin | DRSC12580 | 15.8 | 13.2 | 5128 | 5708 |
| Neurochondrin | DRSC26704 | 3.29 | 6.32 | 6165 | 5804 |

Targets above whose target name starts with W or w (2):
| gene | DRSC id | infection score, replicate 1 | infection score, replicate 2 | cell count, replicate 1 | cell count, replicate 2 |
| --- | --- | --- | --- | --- | --- |
| Wdr62 | DRSC00081 | 4.44 | 2.42 | 6617 | 6244 |
| Wdr62 | DRSC21913 | 9.17 | 2.51 | 5842 | 5967 |
